## Mutational tolerance of the Zika virus NS2B-NS3 protease

Data from the supplement of Ni et al. 2025, doi:10.1038/s41467-025-63602-z.

Chain scanned (Zika virus MR766; NS2B from position 2 to 131, then the start of NS3):
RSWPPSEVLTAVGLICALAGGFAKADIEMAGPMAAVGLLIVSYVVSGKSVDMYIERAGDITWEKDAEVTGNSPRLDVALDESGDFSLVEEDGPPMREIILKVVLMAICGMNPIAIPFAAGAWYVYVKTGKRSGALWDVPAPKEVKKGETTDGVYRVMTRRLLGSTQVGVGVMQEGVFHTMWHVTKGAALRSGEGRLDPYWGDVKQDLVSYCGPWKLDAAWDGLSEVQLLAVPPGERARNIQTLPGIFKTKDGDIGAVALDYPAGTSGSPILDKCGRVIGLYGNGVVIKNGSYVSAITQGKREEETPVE

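Libraries of single mutants were passaged as virus pools on Huh-7.5 cells. Sequencing of three replicate libraries (two for positions 207-308) was averaged into one effect per change. The study looked for pockets that tolerate few changes, as a guide for inhibitor design.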

Values are log2 effects on growth: 0 is wild type, lower means poorer growth. Each entry names the wild-type residue, its position and the residue put in its place. This list holds changes to tryptophan only. The region was split into three libraries (1-103, 104-206, 207-308). Position 1 still belongs to NS2A. In the paper, -1 or higher counts as tolerated. Six mutants with high scores were retested singly and none clearly outgrew wild type, so positive values are not proof of better growth.

* D59W = -5.58
* I60W = -6.31
* T61W = -2.06
* E63W = -3.21
* K64W = -1.19
* D65W = -5.70
* A66W = -6.28
* E67W = -5.39
* V68W = -6.09
* T69W = -6.39
* G70W = -6.38
* N71W = -3.68
* S72W = -6.50
* P73W = -5.36
* R74W = -6.69
* L75W = -6.66
* D76W = -0.37
* V77W = -6.33
* A78W = -0.01
* L79W = -6.22
* D80W = -5.86
* E81W = -5.55
* S82W = -2.45
* G83W = -6.31
* D84W = -5.99
* F85W = -0.93
* S86W = -2.46
* L87W = -6.84
* V88W = -5.72
* E89W = -5.13
* E90W = -0.27
* D91W = -3.61
* G92W = -1.52
* P93W = -4.11
* P94W = -3.16
* M95W = 0.16
* R96W = -3.16
* E97W = -4.18
* I98W = -6.04
* I99W = -1.29
* L100W = -2.52
* K101W = -6.25
* V102W = -5.75
* V103W = -3.74
* L104W = -6.87
* M105W = -5.97
* A106W = -3.32
* I107W = -5.39
* C108W = -6.58
* G109W = -5.18
* M110W = 0.23
* N111W = -2.08
* P112W = -5.17
* I113W = -3.20
* A114W = -1.39
* I115W = -4.88
* P116W = -6.10
* F117W = -3.56
* A118W = -5.43
* A119W = -2.47
* G120W = -3.06

A selection of 3 entries from above:

* K101W -> -6.25
* G92W -> -1.52
* R96W -> -3.16